Taken from: PubChem BioAssay AID504761 (Drosophila RNAi Screening Center, 2011)
Screen: 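Fly genes whose silencing reduces dengue virus type 2 infection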 (primary screen). System: D.Mel-2 cells from Drosophila. Knock-down reagent: long dsRNA against Drosophila genes. Challenge: infection with dengue virus type 2; dose and infection time not stated. Read-out: 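Per well on two replicate plates, imaging gave the percent of cells positive for viral envelope protein, ranked by infection, and a nuclear count of cells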. Scale: infection score: higher = more virus-infected cells; cell count: higher = more cells in the well. Rule for the call: 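Very low infection ranking in both replicate wells (chance probability at most 0.065), then a retest showing infection dropped 1.5-fold or more at p below 0.05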. Calls: active = confirmed: knock-down lowers infection; inactive = not picked or not confirmed.
The deposit covers about 22,000 reagents; this is a random part of those that have a named target and a result. In the full data, 116 (0.52%) are marked active. 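Calls depend on retest data that are not deposited; infection was ranked per plate without normalising between plates; the unit of the infection score is not given.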 Raw values are not corrected between plates. Reagents against one gene are numbered here. A plus sign joins genes that one reagent is predicted to hit. Not stated in the record: the amount of reagent, the time to read-out.

target,reagent no.,"infection score, replicate 1","infection score, replicate 2","cell count, replicate 1","cell count, replicate 2",call
CG2100,1,5.04,8.59,6266,5959,inactive
PPO2,1,3.52,1.27,6627,6922,inactive
twe,1,18.8,18.8,6341,6171,inactive
twe,2,5.46,31.5,1338,5385,inactive
CG5853,1,,0.09,,6557,inactive
CG5853,2,5.98,8.93,6874,6037,inactive
CG14062,1,10.7,3.65,6093,6440,inactive
CG14062,2,4.31,13.8,6364,6647,inactive
Obp58b,1,3.36,29,745,3368,inactive
CG5597,1,18.4,20.9,4824,6109,inactive
CG4956,1,12.7,,5571,322,inactive
CG4956,2,3.97,4.03,6097,6232,inactive
Sema2a,1,22.9,1.16,5619,6375,inactive
Sclp,1,1.5,10,6620,6580,inactive
CG12728,1,17.5,6.7,1832,6850,inactive
Cyp6d2,1,5.16,4.24,6448,6550,inactive
Cyp6d2,2,0.9,2.21,6196,6109,inactive
eIF4E4,1,8.03,9.58,5993,5754,inactive
CG11698,1,2.15,4.91,6612,6314,inactive
CG8202,1,3.05,8.56,6328,6638,inactive
SmD1,1,2.07,19,4931,4761,inactive
SmD1,2,10,0.95,1657,529,inactive
Adi1,1,3.25,3.78,5727,6078,inactive
Adi1,2,2.36,6.41,5645,5524,inactive
Daao2,1,11.7,15.8,5818,5398,inactive
MsR2 + CG13802 (retired record),1,1.81,2.37,6397,6466,inactive
MsR2 + CG13802 (retired record),2,3.13,0.96,6235,6456,inactive
MsR2 + CG13802 (retired record),3,4.13,6.75,5878,6567,inactive
MsR2 + CG13802 (retired record),4,1.96,3.99,6634,6334,inactive
bero,1,3.43,,5541,565,inactive
bero,2,6.32,3.08,6485,6143,inactive
CG7049,1,12.8,31.7,5860,3751,inactive
CG7049,2,8.66,2.55,5533,6522,inactive
Drice,1,1.74,4.4,6031,6543,inactive
Drice,2,8.3,13,6422,7122,inactive
Obp85a,1,13.4,20,6814,6322,inactive
l(3)72Dn,1,6.05,12.2,3093,5855,inactive
CG17036,1,10.6,9.35,6052,5884,inactive
CG17036,2,9.41,0.49,6299,407,inactive
MESR4,1,10.6,24.8,5807,4847,inactive
CG14370,1,3.9,3.35,5839,5764,inactive
CG15199,1,2.7,6.22,6551,5936,inactive
SERCA,1,15.7,22.7,5447,5327,inactive
SERCA,2,6.6,2.41,5398,5219,inactive
CG13842,1,0.73,4.22,6052,5883,inactive
Alp7,1,14.1,19.6,6524,5832,inactive
Alp7,2,12.7,8.71,6025,6738,inactive
CG12716,1,1.5,3.04,5719,6078,inactive
CG12716,2,3.71,20,755,3713,inactive
CG15127,1,0.65,0.37,5962,6139,inactive
CG15127,2,5.91,1.23,5941,6109,inactive
up,1,18,14.9,6246,6601,inactive
up,2,14.6,5.19,2929,2390,inactive
Cyp12d1-d + Cyp12d1-p,1,2.59,9.52,6065,5831,inactive
Cyp12d1-d + Cyp12d1-p,2,12.5,21.7,6660,6487,inactive
CR33328 (retired record),1,1.34,0.69,6735,6847,inactive
CR33328 (retired record),2,15.4,10.6,6539,6068,inactive
CG2887,1,4,8.28,5946,6126,inactive
CG2887,2,4,5.73,5745,6090,inactive

Just “cell count, replicate 1”, for 6 of the entries above:
CG15127 #1: 5962
CG15127 #2: 5941
up #1: 6246
up #2: 2929
Cyp12d1-d + Cyp12d1-p #1: 6065
Cyp12d1-d + Cyp12d1-p #2: 6660
